Results from paper PMC7990224 (PLoS Pathogens, 2021).

System: SARS-CoV-2 GFP/ΔN trVLP
Type: cell-based

B1: IFN-β: type I interferon (Sino Bioligical, 10704-HNAS-5) (protein, UniProt P01574 22-187, looked up)
Interferon beta: MSYNLLGFLQRSSNFQCQKLLWQLNGRLEYCLKDRMNFDIPEEIKQLQQFQKEDAALTIYEMLQNIFAIFRQDSSSTGWNETIVENLLANVYHQINHLKTVLEEKLEKEDFTRGKLMSSLHLKRYYGRILHYLKAKEYSHCAWTIVRVEILRNFYFINRLTGYLRN
  reduction of the GFP fluorescence: 60%
